Target: SARS-CoV-2 M^pro (Severe acute respiratory syndrome coronavirus 2, UniProt P0DTD1)
Assay type: biochemical
Conditions: read-out: SARS-CoV-2 M^pro IC50; FRET assay, 50 nM M^pro, 10 min preincubation

## Myricitrin
  IC50: > 10 µM
